A mixed list of measured activities; the numbers were collected in NIAID ChemDB.

All rows: target-level tests; organism: HIV-1; protein: Protease; method: fluorescence; read-out: IC50

ICn is the concentration giving n% inhibition. An empty or dashed field is not shown. Rows are shuffled and stem from different studies. Two numbers with a dash give a range or band.

CC(C)c1nc(CN(C)C(=O)N[C@H](C(=O)N[C@@H](Cc2ccccc2)[C@@H](O)CN(Cc2ccccc2)NC(=O)OC(C)(C)C)C(C)C)co1 ; result: <0.0005 µM
COc1ccc(C[C@H](C[C@H](O)[C@H](Cc2ccccc2)NC(=O)OC(C)(C)C)C(=O)N[C@H](C(=O)N[C@@H](Cc2ccccc2)C(=O)N2CCOCC2)C(C)C)c(OC)c1 ; result: 0.018 µM
CC(C)[C@@H](C(=O)N[C@@H](Cc1ccccc1)[C@H](O)C(=O)N1CSC[C@H]1C(=O)NC(C)(C)C)N(C)C(=O)[C@H](Cc1cccc2ccccc12)NC(=O)CN(C)C ; result: 0.0013 µM
CC(=O)Oc1cccc(C(=O)N[C@@H](Cc2ccccc2)[C@H](O)CN2C[C@H]3CCCC[C@H]3C[C@H]2C(=O)NC(C)(C)C)c1C ; result: 0.158 µg/mL
CCC(Cc1cccc(NS(=O)(=O)c2ccccn2)c1)c1cc(O)c(C(c2ccccc2)C2CC2)c(=O)o1 ; result: 0.66 µM
Cc1c(OP(=O)(O)O)cccc1C(=O)N[C@@H](CSc1ccccc1)[C@H](O)CN1C[C@H]2CCCC[C@H]2C[C@H]1C(=O)NC(C)(C)C ; result: 0.004 µg/mL
COc1cccc(CCC(=O)N2C[C@@H](O)[C@@H](Cc3ccccc3)N(Cc3ccc(O)c(OC)c3)C(=O)N2Cc2ccc(O)c(OC)c2)c1 ; result: <0.0005 µM
CCC(Cc1cccc(NS(=O)(=O)c2ccc([N+](=O)[O-])cc2)c1)c1cc(O)c(C(c2ccccc2)C2CC2)c(=O)o1 ; result: 2.22 µM
CC[C@H](NC(=O)N(C)Cc1ccccn1)C(=O)N[C@@H](CSc1ccc2ccccc2c1)[C@@H]1O[C@@H]1[C@H](CSc1ccc2ccccc2c1)NC(=O)[C@H](CC)NC(=O)N(C)Cc1ccccn1 ; result: >1000 µg/mL
CC(C)[C@@H]1NC(=O)[C@@H](NC(=O)OCc2ccccc2)CCCOc2ccc(cc2)C[C@@H]([C@@H](O)[C@H](O)[C@@H]2Cc3ccc(cc3)OCCC[C@H](NC(=O)OCc3ccccc3)C(=O)N[C@@H](C(C)C)C(=O)N2)NC1=O ; result: 0.006 µM
O=C(CO)N1C[C@@H](O)[C@@H](Cc2ccccc2)N(Cc2ccc(O)cc2)C(=O)N1Cc1ccc(O)cc1 ; result: 0.0066 µM
CCCC[C@H](NC(=O)OCc1ccccn1)C(=O)N[C@@H](Cc1ccccc1)[C@@H]1O[C@@H]1[C@H](Cc1ccccc1)NC(=O)[C@H](CCCC)NC(=O)OCc1ccccn1 ; result: >1000 µg/mL
CC(C)c1nc(CN(C)C(=O)N[C@H](C(=O)NN(Cc2ccccc2)C[C@H](O)[C@H](Cc2ccccc2)NC(=O)OCc2ccccc2)C(C)C)cs1 ; result: <0.0005 µM
CCCC[C@H](NC(=O)c1ccc2ccccc2n1)C(=O)CC(Cc1ccc2ccccc2c1)C(=O)N[C@@H](CCC(N)=O)C(=O)N[C@@H](CCCN=C(N)N)C(N)=O ; result: 1.44 µM
CC(C)[C@@H]1NC(=O)[C@@H](NC(=O)OCc2ccccc2)CCC(=O)Nc2cccc(c2)C[C@@H]([C@@H](O)[C@H](O)[C@@H]2Cc3cccc(c3)NC(=O)CC[C@H](NC(=O)OCc3ccccc3)C(=O)N[C@@H](C(C)C)C(=O)N2)NC1=O ; result: 0.389 µM
CCCN1C(=O)N(CCC)N(C(=O)C(C)C)C[C@@H](O)[C@H]1Cc1ccccc1 ; result: 0.011 µM
CO[C@@H]1CO[C@H]2[C@@H]1OC[C@@H]2OC(=O)N[C@@H](Cc1ccccc1)[C@H](O)CN(CC(C)C)S(=O)(=O)c1ccc(N)cc1 ; result: 0.00043 µM
CC(C)CC(=O)N1C[C@@H](O)[C@@H](Cc2ccccc2)N(Cc2ccc(O)cc2)C(=O)N1Cc1ccc(O)cc1 ; setting: pH 4.5 ; result: <0.0005 µM
CC(=O)N[C@@H](Cc1ccc(F)cc1)C(=O)N[C@H](C(=O)N[C@@H](Cc1ccccc1)[C@@H](O)C(=O)N[C@H]1Cc2ccc(cc2)OCCCNC(=O)[C@H](C(C)C)NC1=O)C(C)C ; result: 0.003 µM
CC(C)c1nc(CN(C)C(=O)N[C@H](C(=O)NN(Cc2ccoc2)C[C@H](O)[C@H](Cc2ccccc2)NC(=O)OCc2cncs2)C(C)C)cs1 ; result: <0.0005 µM
CC(C)c1nc(CN(C)C(=O)N[C@H](C(=O)NN(Cc2ccc(O)cc2)C[C@H](O)[C@H](Cc2ccccc2)NC(=O)OCc2cncs2)C(C)C)cs1 ; result: <0.0005 µM
CC(C)[C@@H](C(=O)N[C@@H](Cc1ccccc1)[C@H](O)C(=O)N1CSC[C@H]1C(=O)NC(C)(C)C)N(C)C(=O)[C@H](Cc1cccc2ccccc12)NC(=O)CCN1CCOCC1 ; result: 0.0014–0.0033 µM
CCCC[C@H](NC(=O)[C@@H](NC(=O)[C@@H](NC(=O)c1cnc2ccccc2n1)[C@@H](C)O)[C@@H](C)CC)C(O)CC(Cc1ccc2ccccc2c1)C(=O)N[C@@H](CCC(N)=O)C(=O)N[C@@H](CCCN=C(N)N)C(N)=O ; result: 0.085 µM
COc1cc(C[C@H](C[C@H](O)[C@H](Cc2ccccc2)NC(=O)OC(C)(C)C)C(=O)N[C@H](C(=O)N[C@@H](Cc2ccccc2)C(=O)N2CCOCC2)C(C)C)cc(OC)c1OC ; result: 0.022 µM
CCC(Cc1ccccc1)c1cc(O)c(C(c2ccccc2)C2CC2)c(=O)o1 ; result: 0.35 µM
COc1ccc(C[C@H](C[C@H](O)[C@H](Cc2ccccc2)NC(=O)OC(C)(C)C)C(=O)N[C@H](C(=O)NCCN(C)C)C(C)C)cc1 ; result: 0.005 µM
Cc1c(O)cccc1C(=O)N[C@@H](CSc1ccccc1)[C@H](O)CN1C[C@H]2SCC[C@H]2C[C@H]1C(=O)NC(C)(C)C ; result: 0.0003 µg/mL
COc1ccccc1C[C@H](C[C@H](O)[C@H](Cc1ccccc1)NC(=O)OC(C)(C)C)C(=O)N[C@H](C(=O)N[C@@H](Cc1ccccc1)C(=O)N1CCOCC1)C(C)C ; result: 0.011 µM
COCCNC(=O)[C@@H](NC(=O)[C@H](Cc1ccc(OC)c(OC)c1OC)C[C@H](O)[C@H](Cc1ccccc1)NC(=O)OC(C)(C)C)C(C)C ; result: 0.001 µM
COc1cc(CN2C(=O)N(Cc3ccc(O)c(OC)c3)N(C(=O)CCCC3CCCO3)C[C@@H](O)[C@H]2Cc2ccccc2)ccc1O ; result: <0.0005 µM
COCCNC(=O)[C@@H](NC(=O)[C@H](Cc1ccc(OC)cc1OC)C[C@H](O)[C@H](Cc1ccccc1)NC(=O)OC(C)(C)C)C(C)C ; result: 0.013 µM
CC[C@H](NC(=O)N(C)Cc1ccccn1)C(=O)N[C@@H](Cc1ccc2ccccc2c1)[C@@H]1O[C@@H]1[C@H](Cc1ccc2ccccc2c1)NC(=O)[C@H](CC)NC(=O)N(C)Cc1ccccn1 ; result: >1000 µg/mL
CC(C)c1nc(CN(C)C(=O)N[C@H](C(=O)NN(Cc2ccccc2)C[C@H](O)[C@H](Cc2ccccc2)NC(=O)OCc2cncs2)C(C)C)co1 ; result: <0.0005 µM
CC(C)(C)NC(=O)[C@@H]1C[C@@H]2CCCC[C@@H]2CN1C[C@H](O)[C@H](Cc1ccccc1)NC(=O)c1c(Cl)ccc(O)c1Cl ; result: 0.346 µg/mL
CCC(Cc1cccc(NS(=O)(=O)c2ccc(OC)cc2)c1)c1cc(O)c(C(c2ccccc2)C2CC2)c(=O)o1 ; result: 2.9 µM
CC(C)[C@@H](C(=O)N[C@@H](Cc1ccccc1)[C@H](O)C(=O)N1CSC[C@H]1C(=O)NC(C)(C)C)N(C)C(=O)[C@H](Cc1cccc2ccccc12)NC(=O)CN1CCOCC1 ; result: 0.0019 µM
CC(C)c1nc(CN(C)C(=O)N[C@H](C(=O)NN(Cc2ccccc2)C[C@H](O)[C@H](Cc2ccccc2)NC(=O)OCc2cncs2)C(C)C)co1 ; result: <0.0005 µM
COC(=O)CCCOc1ccc2ccc(OCCCC(=O)N[C@H](C(=O)N[C@@H](CC(C)C)C(=O)N[C@H](C(=O)OC)C(C)C)[C@@H](C)O)cc2c1 ; result: >4.5 µM
Cc1cnccc1C(=O)N[C@H](CSc1ccccc1)[C@@H](O)CN1CCN(Cc2cccnc2)C[C@H]1C(=O)NC(C)(C)C ; result: 0.073 µg/mL
CC(C)c1nc(CN(C)C(=O)N[C@H](C(=O)N[C@@H](Cc2ccccc2)[C@@H](O)CN(Cc2ccccc2)NC(=O)OC(C)(C)C)C(C)C)co1 ; result: <0.0005 µM
CCCCC(CC(=O)[C@H](CCCC)NC(=O)c1cnc2ccccc2n1)C(=O)N[C@@H](CCC(N)=O)C(=O)N[C@@H](CCCN=C(N)N)C(N)=O ; result: >10 µM
CC(C)c1nc(CN(C)C(=O)N[C@H](C(=O)NN(Cc2ccccc2)C[C@H](O)[C@H](Cc2ccccc2)NC(=O)OCc2ccccc2)C(C)C)co1 ; result: <0.0005 µM
CCCC[C@H](NC(=O)c1cnc2ccccc2n1)C(=O)CC(Cc1ccc2ccccc2c1)C(=O)N[C@@H](CCC(N)=O)C(N)=O ; result: >10 µM
N#CC[C@H](NC(=O)Oc1ccc2ccccc2n1)C(=O)N[C@@H](Cc1ccccc1)[C@@H]1O[C@@H]1[C@H](Cc1ccccc1)NC(=O)[C@H](CC#N)NC(=O)Oc1ccc2ccccc2n1 ; result: 4.2 µg/mL

6 of the rows above, restated:

structure,setting,result
COC(=O)CCCOc1ccc2ccc(OCCCC(=O)N[C@H](C(=O)N[C@@H](CC(C)C)C(=O)N[C@H](C(=O)OC)C(C)C)[C@@H](C)O)cc2c1,,>4.5 µM
Cc1c(OP(=O)(O)O)cccc1C(=O)N[C@@H](CSc1ccccc1)[C@H](O)CN1C[C@H]2CCCC[C@H]2C[C@H]1C(=O)NC(C)(C)C,,0.004 µg/mL
CCCC[C@H](NC(=O)c1cnc2ccccc2n1)C(=O)CC(Cc1ccc2ccccc2c1)C(=O)N[C@@H](CCC(N)=O)C(N)=O,,>10 µM
CCCC[C@H](NC(=O)OCc1ccccn1)C(=O)N[C@@H](Cc1ccccc1)[C@@H]1O[C@@H]1[C@H](Cc1ccccc1)NC(=O)[C@H](CCCC)NC(=O)OCc1ccccn1,,>1000 µg/mL
CCC(Cc1cccc(NS(=O)(=O)c2ccc(OC)cc2)c1)c1cc(O)c(C(c2ccccc2)C2CC2)c(=O)o1,,2.9 µM
CC(C)CC(=O)N1C[C@@H](O)[C@@H](Cc2ccccc2)N(Cc2ccc(O)cc2)C(=O)N1Cc1ccc(O)cc1,pH 4.5,<0.0005 µM